Laboratory results published in patent publication US20140004137A1, “IMMUNE RESTRICTED PEPTIDES WITH INCREASED EFFICACY” (priority 2010, published 2014).

Columns and labels:
[1] = target: HLA-A0201 (Homo sapiens, UniProt P04439, D140Y/D185E/D98H/E176V/E277Q/G131W/G231S/I119V/I121R/I166T/I218V/L300P/L318F/N151K/N90K/P208A/P217A/Q86G/Q94H/R138H/R169H/T345S); details: cited from earlier work
[2] = tested on: CD8+ T cells from Influenza A positive donors sorted with HLA A2.1::[…] tetramers; type: cell-based, human
[3] = tested on: CD8+ T cells from Influenza A positive donors sorted with HLA A2.1::[…] tetramers; type: cell-based, human; remark: listed apart in the source

Question: Which results are given for FLPSDFFPSV?
Answer: affinity for HLA-A2.1 (in words, background statement) [1]: very high affinity for HLA-A2.1; % Positive TCR recognition (% TCR) [2]: 0.10%; Geometric mean (Geo TCR) [2]: 100 arbitrary fluorescence units; % CD8+ T cells producing IFN-γ (% IFN) [3]: 0.0%; Geometric mean IFN-γ (Geo IFN) [3]: 106 arbitrary fluorescence units
